The target of the assay is His-tagged ArsR6 (Brucella suis S2).

Experimental findings from publication PMC8509827, “An ArsR Transcriptional Regulator Facilitates Brucella sp. Survival via Regulating Self and Outer Membrane Protein” (2021) are described below.

His-tagged ArsR6 (natural protein) returned a stoichiometry N of 2.

Broadly, the stoichiometry N is the number of molecules, sites or subunits per partner or assembly.
